Series [1] has as its system E. coli O157: H7 (ATCC 43888). The series is classed as cell-based, Escherichia coli O157: H7. The settings on record: ratio CC50 in VERO cells / MIC in ATCC 43888; maximum evaluated concentration used where CC50 not determined.
Series [2] has as its system E. coli O157: H7 clinical isolate (AC188). In kind it is cell-based, Escherichia coli O157: H7. The settings on record: ratio CC50 in VERO cells / MIC in AC188; maximum evaluated concentration used where CC50 not determined.

This is an account of results in publication PMC7018034, “Antimicrobial activity of Ib-M peptides against Escherichia coli O157: H7” (PLoS ONE, 2020).

Ends that are not written are not given here.

For the substance EWGRRMMGRGPGRRMMRRWW-NH2 [Ib-M4], the “SI (selectivity index) E. coli O157: H7 ATCC 43888” value in series [1] was greater than 32. Also, in series [2], the “SI (selectivity index) E. coli O157: H7 AC188” value is on record as greater than 63.5.

In the case of EWGRRMMGRGPGRRMMRWWR-NH2 [Ib-M1], in series [1], the “SI (selectivity index) E. coli O157: H7 ATCC 43888” value was found to be 84.1. Moreover, the “SI (selectivity index) E. coli O157: H7 AC188” value in series [2] was 247.

In the case of EWGRRMMGWGRGRRMMRRWW-NH2 [Ib-M6], in series [1], the “SI (selectivity index) E. coli O157: H7 ATCC 43888” value was 33.1. Moreover, the “SI (selectivity index) E. coli O157: H7 AC188” value in series [2] worked out at 66.1.

In the case of EWGRRMMGWRPGRRMMRRWW-NH2 [Ib-M5], in series [1], the “SI (selectivity index) E. coli O157: H7 ATCC 43888” value was 38. Besides, the “SI (selectivity index) E. coli O157: H7 AC188” value in series [2] was found to be 67.1.

For EWGRRMMGWRPGRRMMRWWR-NH2 [Ib-M2], the “SI (selectivity index) E. coli O157: H7 ATCC 43888” value in series [1] is given as 42. Besides, the “SI (selectivity index) E. coli O157: H7 AC188” value in series [2] is given as 54.9.
